Experimental data from patent US7273614B2 (priority 1993, dated 2007).

Assays:
HIV-1LAI [1] = conditions: for IC50 (inhibition of RT production): 247 TCID50 HIV-1LAI, CEM cells, 7 days, FIG. 2; for inhibition of HIV-1 cell free virus infection (in words): FIG. 1 legend
Description: Synthetic peptides were incubated at 37° C. with either 247 TCID50 (for experiment depicted in FIG. 2), or 62 TCID50 (for experiment depicted in FIG. 3) units of HIV-1LAI virus or 25 TCID50 units of HIV-2NIHZ and CEM CD4+ cells at peptide concentrations of 0, 0.04, 0.4, 4.0, and 40 μg/ml for 7 days. The resulting reverse transcriptase (RT) activity in counts per minute was determined using the assay described, below, in Section 6.1.5. See, Reed, L. J. et al., 1938, Am. J. Hyg. 27: 493-497 for an explanation of TCID50 calculations.
The micro-reverse transcriptase (RT) assay was adapted from Goff et al. (Goff, S. et al., 1981, J. Virol. 38:239-248) and Willey et al. (Willey, R. et al., 1988, J. Virol. 62:139-147). Supernatants from virus/cell cultures are adjusted to 1% Triton-X100. A 10 μl sample of supernatant was added to 50 μl of RT cocktail in a 96-well U-bottom microtitre plate and the samples incubated at 37° C. for 90 min. The RT cocktail contained 75 mM KCl, 2 mM dithiothreitol, 5 mM MgCl2, 5 μg/ml poly A (Pharmacia, cat. No. 27-4110-01), 0.25 units/ml oligo dT (Pharmacia, cat. No. 27-7858-01), 0.05% NP40, 50 mM Tris-HCl, pH 7.8, 0.5 μM non-radioactive dTTP, and 10 μCi/ml ^32P-dTTP (Amersham, cat. No. PB.10167).
After the incubation period, 40 μl of reaction mixture was applied to a Schleicher and Schuell (S+S) NA45 membrane (or DE81 paper) saturated in 2×SSC buffer (0.3M NaCl and 0.003M sodium citrate) held in a S+S Minifold over one sheet of GB003 (S+S) filter paper, with partial vacuum applied. Each well of the minifold washed four times with 200 μl 2×SSC, under full vacuum. The membrane was removed from the minifold and washed 2 more times in a pyrex dish with an excess of 2×SSC. Finally, the membrane was drained on absorbent paper, placed on Whatman #3 paper, covered with Saran wrap, and exposed to film overnight at −70° C.
DP178 (SEQ ID:1) was next tested for its ability to block CD-4^+ CEM cell infection by cell free HIV-1 virus. […] Each concentration (0, 0.04, 0.4, 4, and 40 μg/ml) of peptide was incubated with 247 TCID50 units of HIV-1LAI virus and CEM cells. After 7 days of culture, cell-free supernatant was tested for the presence of RT activity as a measure of successful infection.

HIV-1LAI [2] = conditions: Wild et al. 1992; cited from earlier work

SMILES	IC50 (inhibition of RT production) (HIV-1LAI [1])	inhibition of HIV-1 cell free virus infection (in words) (HIV-1LAI [1])	activity in cell-free HIV-1 infection assay, previously shown (in words) (HIV-1LAI [2])
CC[C@H](C)[C@H](NC(=O)[C@H](C)NC(=O)[C@@H](NC(=O)[C@@H](NC(=O)[C@H](CCCNC(=N)N)NC(=O)[C@H](C)NC(=O)[C@H](CCC(N)=O)NC(=O)[C@H](CC(C)C)NC(=O)[C@H](CC(N)=O)NC(=O)[C@H](CCCCN)NC(=O)[C@@H](NC(=O)CNC(=O)[C@H](Cc1c[nH]c2ccccc12)NC(=O)[C@@H](NC(=O)[C@@H](NC(=O)[C@H](CC(C)C)NC(=O)[C@H](CCCNC(=N)N)NC(=O)[C@H](CC(C)C)NC(=O)[C@H](CCSC)NC(=O)[C@H](CCC(=O)O)NC(=O)[C@H](CCC(N)=O)NC(=O)[C@H](CCC(N)=O)NC(=O)[C@H](CCCNC(=N)N)NC(=O)[C@H](CCCCN)NC(=O)[C@@H](NC(=O)[C@@H](NC(=O)[C@H](CC(=O)O)NC(=O)[C@H](CC(C)C)NC(=O)[C@H](CC(C)C)NC(=O)[C@H](CCC(N)=O)NC(=O)[C@H](CCC(N)=O)NC(C)=O)C(C)C)C(C)C)[C@@H](C)O)C(C)C)[C@@H](C)O)C(C)C)[C@@H](C)O)C(=O)N[C@@H](CCC(=O)O)C(=O)N[C@@H](CCCCN)C(=O)N[C@@H](Cc1ccc(O)cc1)C(=O)N[C@@H](CC(C)C)C(=O)N[C@@H](CCCCN)C(=O)N[C@@H](CC(=O)O)C(=O)N[C@@H](CCC(N)=O)C(N)=O [DP-118]	approximately 5 μg/ml	inhibits HIV-1 cell free virus infection	active
CC[C@H](C)[C@H](NC(=O)CNC(=O)[C@H](Cc1c[nH]c2ccccc12)NC(=O)[C@@H](NC(=O)[C@@H](NC(=O)[C@H](CC(C)C)NC(=O)[C@H](CCC(N)=O)NC(=O)[C@H](CC(C)C)NC(=O)[C@H](CC(C)C)NC(=O)[C@H](Cc1c[nH]cn1)NC(=O)[C@H](CCC(N)=O)NC(=O)[C@H](CCC(N)=O)NC(=O)[C@H](C)NC(=O)[C@H](CCC(=O)O)NC(=O)[C@@H](NC(=O)[C@H](C)NC(=O)[C@H](CCCNC(=N)N)NC(=O)[C@H](CC(C)C)NC(=O)[C@H](CC(C)C)NC(=O)[C@H](CC(N)=O)NC(=O)[C@H](CC(N)=O)NC(=O)CNC(=O)CNC(=O)[C@H](CS)NC(C)=O)[C@@H](C)CC)[C@@H](C)O)C(C)C)C(=O)N[C@@H](CCCCN)C(=O)N[C@@H](CCC(N)=O)C(=O)N[C@@H](CC(C)C)C(=O)N[C@@H](CCC(N)=O)C(=O)N[C@@H](C)C(=O)N[C@@H](CCCNC(=N)N)C(=O)N[C@H](C(=O)N[C@@H](CC(C)C)C(=O)N[C@@H](C)C(=O)N[C@H](C(=O)N[C@@H](CCC(=O)O)C(=O)N[C@@H](CCCNC(=N)N)C(=O)N[C@@H](Cc1ccc(O)cc1)C(=O)N[C@@H](CC(C)C)C(=O)N[C@@H](CCCCN)C(=O)N[C@@H](CC(=O)O)C(=O)N[C@@H](CCC(N)=O)C(N)=O)C(C)C)[C@@H](C)CC [DP-125]	approximately 5 μg/ml	inhibits HIV-1 cell free virus infection	active
